For the experiment, the target named is Neuraminidase (Influenza A virus (A/Memphis/1/1971(H3N2)), UniProt P03471).

The chains behind the UniProt entries cited, without tags or fusion partners.
UniProt P03471, whole entry, looked up: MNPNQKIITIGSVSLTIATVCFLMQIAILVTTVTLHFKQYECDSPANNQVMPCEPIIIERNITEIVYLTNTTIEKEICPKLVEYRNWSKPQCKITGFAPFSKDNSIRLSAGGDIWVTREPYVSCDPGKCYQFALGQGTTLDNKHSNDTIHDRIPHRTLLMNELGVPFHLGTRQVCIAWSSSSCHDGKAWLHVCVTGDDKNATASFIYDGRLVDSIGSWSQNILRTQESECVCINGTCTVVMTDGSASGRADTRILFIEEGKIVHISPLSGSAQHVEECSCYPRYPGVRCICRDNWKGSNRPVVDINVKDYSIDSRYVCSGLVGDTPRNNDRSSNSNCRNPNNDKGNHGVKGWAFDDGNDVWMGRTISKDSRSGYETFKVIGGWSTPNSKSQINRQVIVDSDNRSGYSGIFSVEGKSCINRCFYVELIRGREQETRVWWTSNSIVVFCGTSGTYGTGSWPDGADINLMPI

For the molecule `CCC(CC)O[C@@H]1C=C(C(=O)N[C@@H](C(=O)O)C(C)C)C[C@H](NCc2ccc(SC)cc2)[C@H]1NC(C)=O`, the IC50 is above 100 µM.

For `CCC(CC)O[C@@H]1C=C(C(=O)NCc2ccc(Cl)cc2)C[C@H](NCc2ccc(N(CC)CC)cc2)[C@H]1NC(C)=O`, the IC50 is above 100 µM.

As for `CCC(CC)O[C@@H]1C=C(C(=O)N[C@@H](C(=O)O)C(C)C)C[C@H](NCc2ccc(-c3ccccc3)cc2)[C@H]1NC(C)=O`, the IC50 was above 100 µM.

In turn, `CCC(CC)O[C@@H]1C=C(C(=O)NCc2ccc(F)cc2)C[C@H](NCc2ccc(SC)cc2)[C@H]1NC(C)=O` showed a half-inhibitory concentration (IC50) above 100 µM.

`CCC(CC)O[C@@H]1C=C(C(=O)NCc2ccc(F)cc2)C[C@H](NCc2ccc(N(CC)CC)cc2)[C@H]1NC(C)=O` gave an IC50 above 100 µM.

Take `CCC(CC)O[C@@H]1C=C(C(=O)NCc2ccc(C(=O)O)cc2)C[C@H](NCc2ccc(-c3ccccc3)cc2)[C@H]1NC(C)=O`: the IC50 is above 100 µM.

Take `CCC(CC)O[C@@H]1C=C(C(=O)N[C@@H](C(=O)O)C(C)C)C[C@H](NCc2ccc(N(CC)CC)cc2)[C@H]1NC(C)=O`: the IC50 is above 100 µM.

Take `CCC(CC)O[C@@H]1C=C(C(=O)NCc2ccc(F)cc2)C[C@H](NCc2ccc(-c3ccccc3)cc2)[C@H]1NC(C)=O`: the IC50 was above 100 µM.

`CCC(CC)O[C@@H]1C=C(C(=O)NCc2ccc(Cl)cc2)C[C@H](NCc2ccc(Sc3ccccc3)cc2)[C@H]1NC(C)=O` yielded a 50% inhibitory concentration (IC50) above 100 µM.

Regarding `CCC(CC)O[C@@H]1C=C(C(=O)NCc2ccc(Cl)cc2)C[C@H](NCc2ccc(-c3ccccc3)cc2)[C@H]1NC(C)=O`, the half-maximal inhibitory concentration (IC50) is above 100 µM.

`CCC(CC)O[C@@H]1C=C(C(=O)NCc2ccc(F)cc2)C[C@H](NCc2ccc(Sc3ccccc3)cc2)[C@H]1NC(C)=O` showed an IC50 above 100 µM.

Regarding `CCC(CC)O[C@@H]1C=C(C(=O)NCc2ccc(C(=O)O)cc2)C[C@H](NCc2ccc(SC)cc2)[C@H]1NC(C)=O`, the IC50 is above 100 µM.

In turn, `CCC(CC)O[C@@H]1C=C(C(=O)NCc2ccc(Cl)cc2)C[C@H](NCc2ccc(SC)cc2)[C@H]1NC(C)=O` displayed an IC50 above 100 µM.

These data come from ChEMBL document CHEMBL4364245 (Eur J Med Chem, 2019).
